Changes are numbered by the printed parent chain. The list shows a part of the results. Env chains of viruses from a treatment-interruption trial, translated from the printed DNA. IC50 / IC80 of two broadly neutralizing antibodies; lower = more sensitive virus; >50 µg/ml means not reached and <0.001 µg/ml is below the lowest dose. No active / inactive call.

Sequences and labels used below:
B1: HIV-1 Env, rebound clone, antibody arm (protein)
chain: MRVRGIPRNWQHLWTWWTLTLGLVIICSTSDNLWVTVYYGVPVWEDADTPLFCASDAKAYSTEKHNVWATHACVPTDPNPQELHLENVTEEFNMWKNNMVEQMHEDIISLWDEALKPCVKLTPLCVTLNCVSLNCSSVNKNVTNGNNSTECAEERENLRNCSFNVTTELKDKKEQTYALFYKLDVVQLNSGNNNNNTYRLINCNVSAIKQACPKVTFDPIPIHYCAPAGFAILKCNDKNFNGTGQCHNVSTVLCTHGIKPVVSTQLLLNGSLSEDEIVIKSENITDNAKSIIVQLNSTVSITCSRPNNNTRKSIRIGPGQVFYAQGDIIGDIRQAHCKVSRGNWTKVMQEVKGQLQKIFNKNITFNSSTGGDLEITTHSFNCRGEFFYCNTTGLFDDTLFNNNNTNDTSPITLPCKIKQIVRMWQRVGQAMYAPPIAGEITCISNITGLLLTRDGGNTTNASNETFRPGGGNMRDNWRSELYKYKVVKIKPLGVAPTKARRRVVQREKRAVGLGAVFLGFLGTAGSTMGAASITLTVQVRQLLSGIVQQQSNLLRAIEAQQHLLQLTVWGIKQLQARVLAVERYLKDQQLLGIWGCSGKLICTTNVPWNTSWSNKSYNEIWDNMTWMQWDKEVRNYSQQIYDLIQESQTQQEKNEQELLALDKWTSLWSWFDISSWLWYIKIFIMIVGGLIGLRIVFAVLSIVKRVRQGYSPLSFQTLTHHQREPDRPEGIEEGGGEQDKDRSIRLVSGFLPLAWDDVRSLCLFLYHRLRDFILIAARTLELLGRSCLQGLRLGREGLKYLWNLLVYWGQELKNSAINLFDTAAIVVANWTDRVIEIAQGIGRAILNIPRRIRQGLERALL
B2: HIV-1 Env, rebound clone, antibody arm (protein)
chain: B1 chain with L782F
B3: HIV-1 Env, rebound clone, antibody arm (protein)
chain: B1 chain with S313G
B4: HIV-1 Env, rebound clone, antibody arm (protein)
chain: B1 chain with K338N, S340N, L804R
B5: HIV-1 Env, rebound clone, antibody arm (protein)
chain: MKVKGTKRNYQHLWRWGIMLLGILMICSAADKFWVTVYYGVPVWKEASTTLFCASDAKAYDTEVHNVWATHACVPTDPNPQEIFLENVTEDFNMWENNMVEQMHEDVISLWDQSLKPCVKLTPLCVTLNCTDLKNVTESGNATATGGNNNRTVENEGEIKNCSFNITTSIRDKVTKEYALFNALDVVPIEDSNDNSSNGGNYSSYRMIHCNTSTITQACPKVSFEPIPIHYCTPAGFAILKCNNNTFSGKGPCNNVSTVQCTHGIRPVVSTQLLLNGSLAEEEIVIRSKNFSQNTDIIIVQLNESVIINCTRPNNNTRRGVHIGPGRAFYATGDIIGDIRRAYCNISRAEWNKTLGRVAEKLREQFPNKTIVFNQSSGGDPEIATHSFNCGGEFFYCYTSKLFNSTWNDTEGKVEEGDGNITFPCRIKQIINLWQEVGKAMYAPPISGIIKCESNITGLLLTRDGGNDNNTNEIFRPWGGNMKDNWRSELYKYKVVKIEPIGVAPTKAKRRVVQREKRAVGALGAMFLGFLGAAGSTMGAASLTLTVQARLLLSGIVQQQNNLLRAIEAQQHMLQLTVWGIKQLQARVLAVERYLRDQQLLGIWGCSGKLICTTAVPWNDSWSNNKTYDDIWENMTWMAWEKEIDNYTGIIYNLLEISQNQQEKNEQELLELDKWASLWNWFDITHWLWYIKIFIMIVGGLIGLRIVFTVLSIINRVRQGYSPLSFQTHLLTSRGPDRPEGIEEEGGEQDRGRSIRLVDGFLALFWDDLRSLCLFSYHRLRDLLLIAARIVELLGRRGWGILKYWWSLLQYWSQELNKSAISLLNATAIAVAEGTDRIIEVVQRAGRAILHIPVRIRQGLERALQ
B6: HIV-1 Env, rebound clone, antibody arm (protein)
chain: B5 chain with F694C, A845T

The first experiment addresses antibody 10-1074. In words: neutralization IC50; higher = virus less sensitive to the antibody. As to the method:
(§1)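 Pseudovirus bearing the Env chain mixed with antibody, from 50 µg/ml in fivefold dilutions, on TZM-bl reporter cells, in duplicate.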
For the molecule B1, the “neutralization IC50” value is over 50 µg/mL.

B2: the “neutralization IC50” value was over 50 µg/mL.

Consider B3, for which the “neutralization IC50” value was over 50 µg/mL.

Turning to B4, the “neutralization IC50” value is over 50 µg/mL.

On to B5, for which the “neutralization IC50” value came to 0.253 µg/mL.

Turning to B6, the “neutralization IC50” value amounted to 0.092 µg/mL.

The target of the next experiment is antibody 3BNC117. The experiment is described as above. As to the method:
as §1
As for B1, the “neutralization IC50” value stood at 0.103 µg/mL.

Consider B2, for which the “neutralization IC50” value was 0.112 µg/mL.

For the molecule B3, the “neutralization IC50” value came out at 0.125 µg/mL.

With B4, the “neutralization IC50” value turned out to be 0.135 µg/mL.

For B5, the “neutralization IC50” value is over 50 µg/mL.

For B6, the “neutralization IC50” value was over 50 µg/mL.

A further experiment addresses antibody 10-1074. Put plainly: neutralization IC80; higher = virus less sensitive to the antibody. As to the method: as §1
Take B1: the “neutralization IC80” value was over 50 µg/mL.

Consider B2, for which the “neutralization IC80” value is over 50 µg/mL.

As to B3, the “neutralization IC80” value was over 50 µg/mL.

With B4, the “neutralization IC80” value was over 50 µg/mL.

In the case of B5, the “neutralization IC80” value was 0.706 µg/mL.

As to B6, the “neutralization IC80” value came to 0.488 µg/mL.

Another experiment has as its target antibody 3BNC117. Described as above. The method, then:
as §1
Take B1: the “neutralization IC80” value came out at 0.653 µg/mL.

Turning to B2, the “neutralization IC80” value came out at 0.807 µg/mL.

Regarding B3, the “neutralization IC80” value was 0.886 µg/mL.

For the molecule B4, the “neutralization IC80” value amounted to 0.543 µg/mL.

Regarding B5, the “neutralization IC80” value was over 50 µg/mL.

B6: the “neutralization IC80” value is over 50 µg/mL.

Source of the values: the supplement of paper PMC12637763.
